This passage reports binding result and Kd results from publication PMC6318325, “The conformational changes coupling ATP hydrolysis and translocation in a bacterial DnaB helicase” (Nature Communications, 2019).

The exact form of at least one protein or probe is not confirmed. For part of these data: A weaker result is weaker than the reference pair of the same experiment. Where a protein sequence is shown, tags need not be part of it. For part of these data: At least one verdict was read from the data and is not stated in words by the source.

Series [1] concerns the target T1, HpDnaB replicative helicase (Helicobacter pylori) (UniProt O25916).
T1 sequence (looked up, limits assumed): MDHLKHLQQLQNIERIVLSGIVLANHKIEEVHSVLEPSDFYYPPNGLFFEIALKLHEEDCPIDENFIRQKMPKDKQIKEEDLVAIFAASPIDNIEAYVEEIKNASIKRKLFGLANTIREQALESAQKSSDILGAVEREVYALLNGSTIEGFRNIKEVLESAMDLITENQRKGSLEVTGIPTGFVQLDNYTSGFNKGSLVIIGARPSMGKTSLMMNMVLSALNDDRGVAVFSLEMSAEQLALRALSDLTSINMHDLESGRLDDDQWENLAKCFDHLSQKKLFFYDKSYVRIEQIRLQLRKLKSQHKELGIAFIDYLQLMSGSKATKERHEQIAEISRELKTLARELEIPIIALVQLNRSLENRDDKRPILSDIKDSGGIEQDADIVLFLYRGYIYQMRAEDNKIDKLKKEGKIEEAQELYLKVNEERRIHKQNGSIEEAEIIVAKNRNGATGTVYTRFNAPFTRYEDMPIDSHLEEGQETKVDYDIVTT
Kind of series: solid-state NMR (31P, 13C). The settings on record: ADP, substoichiometric DNA binding, metal ion absent in the DNA-bound state; NMR: protein buffer 2.5 mM sodium phosphate pH 7.5, 130 mM NaCl, 278 K; recombinant protein; single-stranded DNA.

The target of series [2] is T1, HpDnaB replicative helicase (Helicobacter pylori). The experiment in a line: solid-state NMR (31P-31P). Conditions: ATP added (ADP found bound in the complex), excess DnaB:ADP without DNA remains; NMR: protein buffer 2.5 mM sodium phosphate pH 7.5, 130 mM NaCl, 278 K; recombinant protein; single-stranded DNA.
Series [3] shares this target. The experiment in a line: fluorescence anisotropy. The settings on record: 0.5 mM ADP, 5 mM MgCl2, not saturated, Bmax fixed at 250, Hill fit h 0.5361; Anisotropy: 20 mM Hepes pH 7.5, 5 mM MgCl2, 50 mM potassium acetate, 5% glycerol, 0.2 mg/ml BSA, 0.5 mM nucleotide, 1 nM DNA, 0-8 uM DnaB (dodecamer); recombinant protein; label: 5'-FAM; single-stranded DNA.

As for TTTTTTTTTTTTTTTTTTTT [(dT)20], the binding result in series [1] is listed as “binds more weakly”; in series [2], “binds”. A word on the Kd: it is the equilibrium constant for the complex coming apart. As to TTTTTTTTTTTTTTTTTTTT [5'-FAM-(dT)20], the Kd in series [3] stood at 5.1 µM.
